Source: patent publication US20040234531A1, “Chimeric human leukocyte antigen and epitope-bearing molecules having immunosuppressant activity” (priority 2001, published 2004)

Molecular target: 14.3d TCR-HA

mDEF (soluble, bivalent MHC class II peptide chimera I-E^d/HA110-120/Fcγ2a) (peptide-MHC)
% Fcγ2a+6.5+ T cells in the spleen: < 0.2%
